A mixed list of measured activities; the numbers were collected in NIAID ChemDB.

Shared fields: tests on isolated targets; organism: HIV-1; target: Protease; endpoint: IC50

ICn: concentration for n% inhibition.

structure,method,strain or isolate,result
CC(C)[C@H](NC(=O)OCc1cccnc1)C(=O)N[C@@H](Cc1ccccc1)[C@@H](O)[C@H](O)[C@H](Cc1ccccc1)NC(=O)[C@@H](NC(=O)OCc1cccnc1)C(C)C,fluorescence,,<0.001 µM
CCNC(=O)[C@H](NC(=O)Cc1ccccc1)[C@@H]1N[C@@H](C(=O)NCCNC(=O)[C@@H]2N[C@@H]([C@@H](NC(=O)Cc3ccccc3)C(=O)NCC)SC2(C)C)C(C)(C)S1,radiometric,RF,1.3 µM
CC(C)[C@H](NC(=O)OCCN1CCOCC1)C(=O)N[C@@H](Cc1ccccc1)[C@@H](O)[C@H](Cc1ccccc1)NC(=O)[C@@H](NC(=O)OCc1ccccc1)C(C)C,fluorescence,,>0.005 µM
CC(C)(C)NC(=O)[C@@H]1[C@H]2CCCC[C@H]2CN1C(=O)[C@@H](O)[C@H](Cc1ccccc1)NC(=O)[C@H](CC(N)=O)NC(=O)COc1cccc2ccccc12,substrate cleavage,BRU,0.00026 µM
CC(C)(C)OC(=O)N[C@@H](Cc1ccccc1)[C@H](O)CNC[C@@H](O)[C@H](Cc1ccccc1)NC(=O)OC(C)(C)C,substrate cleavage,,0.136 µM
CC(C)[C@H](N)C(=O)N[C@@H](Cc1ccccc1)C(O)[C@H](Cc1ccccc1)NC(=O)[C@@H](NC(=O)OCc1ccccc1)C(C)C,fluorescence,,<0.01 µM
C[C@@H]1O[C@@H](O[C@H]2[C@H](Oc3cc(O)c4c(c3)O[C@H](c3ccc(O)cc3)CC4=O)O[C@H](CO)[C@@H](O)[C@@H]2O)[C@H](O)[C@H](O)[C@H]1O,HPLC / fluorescence,SF2,220 µM
COc1ccc(C(O)C(C)Oc2ccc([C@H]3O[C@H](c4ccc(OC(C)C(O)c5ccc6c(c5)OCO6)c(OC)c4)[C@H](C)[C@H]3C)cc2OC)cc1OC,substrate cleavage,,>125 µM
CC(C)[C@H](NC(=O)c1ccc2ccccc2n1)C(=O)N[C@@H](Cc1ccccc1)[C@H](O)C(=O)N1[C@H](C(=O)NC(C)(C)C)C[C@@H]2CCCC[C@@H]21,substrate cleavage,BRU,0.03 µM
COc1ccc2c(=O)cc(C(=O)O)oc2c1,HPLC / fluorescence,SF2,184 µM
O=C(N[C@@H](Cc1ccccc1)[C@H](Cc1ccccc1)n1cc(CN2CC=C(c3ccc(Cl)cc3)CC2)nn1)OC1CCCC1,fluorescence,,<5 µM
CC(C)N(CC(=O)NC12NC(=O)C3(O)C4C5CC(C6C5C3C61)C42)C(=O)CN(C)C(=O)OCc1ccccc1,absorbance,,10 µM
CC(C)(C)NC(=O)[C@@H]1[C@@H]2CCCC[C@@H]2CN1C(=O)[C@@H](O)[C@H](Cc1ccccc1)NC(=O)[C@H](CC(N)=O)NC(=O)c1ccc2ccccc2c1,substrate cleavage,BRU,0.0013 µM
O=c1cc(-c2ccccc2)oc2c(O)c(O)ccc12,HPLC / fluorescence,SF2,100 µM
CC(C)[C@H](NC(=O)OCc1cccnc1)C(=O)N[C@@H](Cc1ccccc1)[C@H](O)[C@@H](O)[C@H](Cc1ccccc1)NC(=O)[C@@H](NC(=O)OCc1cccnc1)C(C)C,fluorescence,,<0.001 µM
Cc1ccc(Cl)cc1N1CCN(Cc2cn([C@@H](Cc3ccccc3)[C@H](Cc3ccccc3)NC(=O)OCC3CC3)nn2)CC1,fluorescence,,<5 µM
CC(C)[C@H](NC(=O)N(C)Cc1ccccn1)C(=O)N[C@@H](Cc1ccccc1)C(O)[C@H](Cc1ccccc1)NC(=O)[C@@H](NC(=O)N(C)Cc1ccccn1)C(C)C,fluorescence,,<0.05 µM
O=c1c(O)c(-c2ccccc2O)oc2ccccc12,HPLC / fluorescence,SF2,12 µM
O=C(N[C@@H](Cc1ccccc1)[C@H](Cc1ccccc1)n1cc(CN2CCN(c3ncccn3)CC2)nn1)OC1CCCC1,fluorescence,,>5 µM
CCNC(=O)[C@@H](NC(=O)Cc1ccccc1)[C@H]1N[C@@H](C(=O)NCCNC(=O)[C@@H]2N[C@H]([C@H](NC(=O)Cc3ccccc3)C(=O)NCC)SC2(C)C)C(C)(C)S1,radiometric,RF,1.3 µM
CC(C)(C)OC(=O)N[C@@H](Cc1ccccc1)[C@@H](O)[C@H](O)[C@H](Cc1ccccc1)NC(=O)OC(C)(C)C,fluorescence,,<0.1 µM
O=C(N[C@@H](Cc1ccccc1)[C@H](Cc1ccccc1)n1cc(CN2CCC(Cc3ccccc3)CC2)nn1)OC1CCCC1,fluorescence,,<5 µM
COC(=O)N[C@H](C(=O)N[C@@H](Cc1ccccc1)[C@@H](O)CN(Cc1ccc(-c2ccccn2)cc1)NC(=O)[C@@H](NC(=O)OC)C(C)(C)C)C(C)(C)C,absorbance,,0.004 µM
O=c1c(O)c(-c2ccc(O)c(O)c2)oc2cc(O)ccc12,HPLC / fluorescence,SF2,50 µM
O=C(N[C@@H](Cc1ccccc1)[C@H](Cc1ccccc1)n1cc(CN2CCCC(c3ccccc3)C2)nn1)OC1CCCC1,fluorescence,,>5 µM
O=c1ccoc2cccc(O)c12,HPLC / fluorescence,SF2,150 µM
CC(N)C(=O)NC(C(=O)NC12NC(=O)C3(O)C4C5CC(C6C5C3C61)C42)C(C)C,absorbance,,0.75 µM
CC(C)[C@H](NC(=O)CCc1ccccn1)C(=O)N[C@@H](Cc1ccccc1)[C@@H](O)[C@H](O)[C@H](Cc1ccccc1)NC(=O)[C@@H](NC(=O)CCc1ccccn1)C(C)C,fluorescence,,<0.001 µM
COc1cc(C(=O)O)cc2c(=O)cc(C(=O)O)oc12,HPLC / fluorescence,SF2,600 µM
C[C@H](Cc1cc2c(cc1O)OCO2)[C@H](C)Cc1cc2c(cc1O)OCO2,substrate cleavage,,5.6 µM
CC(C)(C)NC(=O)[C@@H]1C[C@@H]2CCC[C@@H]2N1C(=O)[C@@H](O)[C@H](Cc1ccccc1)NC(=O)[C@H](CC(N)=O)NC(=O)OCc1ccccc1,substrate cleavage,BRU,0.0023 µM
Cc1ccc(Cl)cc1N1CCN(Cc2cn([C@@H](Cc3ccccc3)[C@H](Cc3ccccc3)NC(=O)OCC3CCCCC3)nn2)CC1,fluorescence,,<5 µM

4 of the rows above, restated:

| structure | method | strain or isolate | result |
|---|---|---|---|
| CC(C)[C@H](NC(=O)c1ccc2ccccc2n1)C(=O)N[C@@H](Cc1ccccc1)[C@H](O)C(=O)N1[C@H](C(=O)NC(C)(C)C)C[C@@H]2CCCC[C@@H]21 | substrate cleavage | BRU | 0.03 µM |
| COc1cc(C(=O)O)cc2c(=O)cc(C(=O)O)oc12 | HPLC / fluorescence | SF2 | 600 µM |
| O=C(N[C@@H](Cc1ccccc1)[C@H](Cc1ccccc1)n1cc(CN2CCCC(c3ccccc3)C2)nn1)OC1CCCC1 | fluorescence |  | >5 µM |
| O=c1c(O)c(-c2ccccc2O)oc2ccccc12 | HPLC / fluorescence | SF2 | 12 µM |

Rows are shuffled and stem from different studies. An empty or dashed field is not shown.